Pooled drug test results. Numbers come from NIAID ChemDB, via PubChem.

Common to all: whole-cell or culture tests; species: Aspergillus niger; read by: agar diffusion / agar; endpoint: zone

Zones are inhibition diameters on agar.

structure	strain	tested at	result
Cc1ccc(Cl)cc1N=Nc1c(C)[nH]n(C(=O)c2sc3ccc(Cl)cc3c2Cl)c1=O	ATCC 9029	40 µg/mL	17 mm
CCCC(=Nc1cccc(N=C(CCC)c2c(C)[nH]n(-c3ccccc3)c2=O)c1)c1c(C)[nH]n(-c2ccccc2)c1=O		400 µg/mL	5 mm
O=C(COc1ccc(-c2nc(-c3ccccc3)c(-c3ccccc3)s2)cc1)CN1CCOCC1	ATCC 16404	100 µg/mL	21 mm
COc1cc(C2OC(c3sc4ccc(Cl)cc4c3Cl)=NN2C(C)=O)cc(OC)c1OC	ATCC 9029	40 µg/mL	20 mm
CC(C)c1ccc2c(c1)CC[C@H]1[C@](C)(CO)CCC[C@]21C	ATCC64958	100 µg/disc	12 mm
CCN1CCN(c2nc(Nc3ccc(C#N)c(C(F)(F)F)c3)nc(Oc3cccc4cccnc34)n2)CC1	MTCC 282	100 µg/disc	21 mm
CCCC(=Nc1ccccc1N)c1c(C)[nH]n(-c2ccccc2)c1=O		400 µg/mL	5 mm
Cc1ccc(S(=O)(=O)CNc2oc3[nH]c(=O)[nH]c(=O)c3c2-c2ccc(O)cc2)cc1		100 µg/mL	3 mm
O=C(COc1ccc(-c2nc(-c3ccccc3)c(-c3ccccc3)s2)cc1)CN1CCCCC1	ATCC 16404	100 µg/mL	18 mm
N=C1C(=S)N(c2ccc(I)cc2)C(=O)N1c1ccc(Cl)c(C(F)(F)F)c1		5 mg/mL	0 mm
COc1ccc(C2OC(c3sc4ccc(Cl)cc4c3Cl)=NN2C(C)=O)cc1	ATCC 9029	40 µg/mL	19 mm
CCOc1ccc(N2C(=O)N(c3ccc(Cl)c(C(F)(F)F)c3)C(=N)C2=S)cc1		5 mg/mL	17 mm
Cc1[nH]n(-c2ccccc2)c(=O)c1C(=Nc1ccccc1N)c1ccccc1		400 µg/mL	6 mm
N#Cc1ccc(Nc2nc(Oc3cccc4cccnc34)nc(N3CCN(c4ccccc4)CC3)n2)cc1C(F)(F)F	MTCC 282	100 µg/disc	20 mm
COc1cc(/C=C/C(=O)O)ccc1O	ATCC64958	100 µg/disc	39 mm
CSc1ccc(C2OC(c3sc4ccc(Cl)cc4c3Cl)=NN2C(C)=O)cc1	ATCC 9029	40 µg/mL	29 mm
O=C(NN=Cc1ccccc1)c1snnc1C(F)(F)F	MTCC 1344	150 µg/mL	0 mm
Cc1c(Cc2ccc(Cl)cc2)[nH]c(=S)[nH]c1=O	NRRL 599	200 µg/disc	<10 mm
C[C@@H]1[C@H](O)[C@@H](C)/C=C/C=C/C=C/C=C/C=C/C=C/C=C/[C@H](O[C@@H]2O[C@H](C)[C@@H](O)[C@H](N)[C@@H]2O)C[C@@H]2O[C@](O)(C[C@@H](O)C[C@@H](O)[C@H](O)CC[C@@H](O)C[C@@H](O)CC(=O)O[C@H]1C)C[C@H](O)[C@H]2C(=O)O		30 µg/disc	20 mm
Clc1ccc(COC(Cn2ccnc2)c2ccc(Cl)cc2Cl)c(Cl)c1		150 µg/mL	4 mm
O=C(NN=Cc1ccco1)c1snnc1C(F)(F)F	MTCC 1344	150 µg/mL	0 mm
C=C1CC[C@H](C)[C@@]2(C)[C@@H](OC(=O)CC(C)C)C[C@@H](OC(C)=O)[C@]3(CO3)[C@@H]2[C@H](OC(C)=O)[C@@]2(O)[C@H](C1)OC(=O)[C@@H]2C		200 µg/mL	18 mm
NC(=S)c1ccc(OC(=O)CNc2nncs2)cc1	ATCC 16404	100 µg/mL	24 mm
CC1OC2=C(C(=O)c3ccccc3C2=O)C1(C)C.O=C(O)c1cc(O)c(O)c(O)c1	ATCC64958	100 µg/disc	39.8 mm
c1ccc(-c2nc(-c3ccc(N4CCCC4)cc3)sc2-c2ccccc2)cc1	ATCC 16404	100 µg/mL	23 mm
C[C@H]1[C@H](O)[C@@H](C)/C=C/C=C/C=C/C=C/C=C/C=C/C=C/[C@H](O[C@@H]2O[C@H](C)[C@@H](O)[C@H](N)[C@@H]2O)C[C@@H]2O[C@](O)(C[C@@H](O)C[C@@H](O)CC[C@H](O)[C@@H](O)C[C@@H](O)CC(=O)O[C@H]1C)C[C@H](O)[C@H]2C(=O)O	MTCC 282	50 µg/mL	25 mm
CCCC(=Nc1cccc(N)c1C)c1c(C)[nH]n(-c2ccccc2)c1=O		400 µg/mL	5 mm
CCc1c(Cc2ccc(OC)c(OC)c2)nc(SCCN2CCOCC2)[nH]c1=O	NRRL 599	200 µg/disc	24 mm
Cc1[nH]n(C(=O)c2sc3ccc(Cl)cc3c2Cl)c(=O)c1N=Nc1ccc(Cl)cc1Cl	ATCC 9029	40 µg/mL	28 mm
O=C(NN=Cc1ccc(F)cc1)c1snnc1C(F)(F)F	MTCC 1344	100 µg/mL	0 mm
N#Cc1ccc(Nc2nc(Oc3cccc4cccnc34)nc(N3CCN(c4cccc(Cl)c4)CC3)n2)cc1C(F)(F)F	MTCC 282	100 µg/disc	23 mm
Cc1[nH]n(-c2ccccc2)c(=O)c1C(=Nc1ccc(N)cc1)c1ccccc1		400 µg/mL	5 mm
N#Cc1ccc(Nc2nc(Oc3cccc4cccnc34)nc(N3CCOCC3)n2)cc1C(F)(F)F	MTCC 282	100 µg/disc	26 mm
CCc1c(Cc2ccc(Cl)cc2)nc(SCCN2CCCC2)[nH]c1=O	NRRL 599	200 µg/disc	13 mm
COC1=CC(=O)C[C@@H](C)[C@]12Oc1c(Cl)c(OC)cc(OC)c1C2=O		5 mg/mL	21 mm
O=C(Cc1ccc(-c2nc(-c3ccccc3)c(-c3ccccc3)s2)cc1)CN1CCOCC1	ATCC 16404	100 µg/mL	18 mm
CCc1c(Cc2ccc(Cl)cc2)nc(SCCCN2C(=O)c3ccccc3C2=O)[nH]c1=O	NRRL 599	200 µg/disc	<10 mm
CC(=O)N1N=C(c2sc3ccc(Cl)cc3c2Cl)OC1c1ccc(O)cc1	ATCC 9029	40 µg/mL	13 mm
NC(=S)c1ccc(OC(=O)CN2CCOCC2)cc1	ATCC 16404	100 µg/mL	19 mm
Cc1ccc(N2C(=O)N(c3ccc(F)cc3)C(=N)C2=S)cc1		5 mg/mL	13 mm
CC(C)N1CCN(c2nc(Nc3ccc(C#N)c(C(F)(F)F)c3)nc(Oc3cccc4cccnc34)n2)CC1	MTCC 282	100 µg/disc	21 mm

For reference, 4 entries again:

structure | strain | tested at | result
Clc1ccc(COC(Cn2ccnc2)c2ccc(Cl)cc2Cl)c(Cl)c1 |  | 150 µg/mL | 4 mm
CCc1c(Cc2ccc(Cl)cc2)nc(SCCCN2C(=O)c3ccccc3C2=O)[nH]c1=O | NRRL 599 | 200 µg/disc | <10 mm
CCCC(=Nc1cccc(N)c1C)c1c(C)[nH]n(-c2ccccc2)c1=O |  | 400 µg/mL | 5 mm
COC1=CC(=O)C[C@@H](C)[C@]12Oc1c(Cl)c(OC)cc(OC)c1C2=O |  | 5 mg/mL | 21 mm

Blank or dashed fields: not listed here. Rows are shuffled and stem from different studies.